Measured values from publication PMC3144219, “Identification of Inhibitors against Mycobacterium tuberculosis Thiamin Phosphate Synthase, an Important Target for the Development of Anti-TB Drugs” (PLoS ONE, 2011).

The chains behind the UniProt entries cited, without tags or fusion partners.
UniProt P9WG75, whole entry: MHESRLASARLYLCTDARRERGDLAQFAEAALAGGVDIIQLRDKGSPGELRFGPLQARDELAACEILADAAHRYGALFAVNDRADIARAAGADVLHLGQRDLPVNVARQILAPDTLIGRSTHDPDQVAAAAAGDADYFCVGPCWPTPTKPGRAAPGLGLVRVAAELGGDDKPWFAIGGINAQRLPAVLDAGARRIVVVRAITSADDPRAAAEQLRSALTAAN

Target: M.tuberculosis thiamin phosphate synthase (MtTPS) (Mycobacterium tuberculosis, UniProt P9WG75)
Assay: Thiamin phosphate synthase thiochrome assay (inhibition of MtTPS activity)

In the case of `O=C(Nc1cccc([N+](=O)[O-])c1)c1cc2ccccc2cc1O` [Compound 10, Naphtazol B], the IC50 (MtTPS activity, HMP-PP 5 µM (the Km value)) is reported as 70 µ/ml and the “percent inhibition of MtTPS activity” value (compound at 100 µg/ml, normal assay conditions) is reported as “greater than 20%”.
